Taken from: PubChem BioAssay AID1259414 (Drosophila RNAi Screening Center, 2018)
The deposit covers about 24,000 reagents; shown is a random part of those with a known target gene and a result. Over the whole deposit, about 1,210 (5%) were called active. 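Inactive calls also include excluded dsRNAs with several or no targets, genes unexpressed in JW18, and well A1, regardless of score.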

- Screen: 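Genome-wide screen for host control of endosymbiont load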 (primary screen)
- System: Drosophila JW18 cells infected with Wolbachia
- Reagent: long dsRNA against Drosophila genes, 0.25 µg dsRNA per well of a 384-well plate
- Timing: 5 days
- Challenge: cells persistently infected with Wolbachia before knock-down; no added drug
- Measured: 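Automated imaging of bacterial rRNA staining divided by host cell count, reported as plate-normalised robust z-score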
- Scale: Wolbachia per cell robust z: higher = more Wolbachia per host cell than the plate typical
- Call rule: 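Hit when robust z is 1.5 or more, or -1.5 or less, in at least two of three replicates; excludes dsRNAs with several or no targets, genes not expressed in JW18 and well A1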

{"gene": "fsd (GeneID 36463)", "amplicon": "DRSC06166", "Wolbachia per cell robust z, rep 1": -0.695, "Wolbachia per cell robust z, rep 2": -1.43, "Wolbachia per cell robust z, rep 3": -0.341, "Call": "inactive"}
{"gene": "mRpS26 (GeneID 40001)", "amplicon": "DRSC10823", "Wolbachia per cell robust z, rep 1": 0.819, "Wolbachia per cell robust z, rep 2": 0.92, "Wolbachia per cell robust z, rep 3": 1.26, "Call": "inactive"}
{"gene": "mRpS26 (GeneID 40001)", "amplicon": "DRSC27288", "Wolbachia per cell robust z, rep 1": -0.696, "Wolbachia per cell robust z, rep 2": 1.14, "Wolbachia per cell robust z, rep 3": -0.858, "Call": "inactive"}
{"gene": "Dlish (GeneID 37014)", "amplicon": "DRSC06016", "Wolbachia per cell robust z, rep 1": -0.421, "Wolbachia per cell robust z, rep 2": -1.19, "Wolbachia per cell robust z, rep 3": 0.209, "Call": "inactive"}
{"gene": "Gnpat (GeneID 53586)", "amplicon": "DRSC16960", "Wolbachia per cell robust z, rep 1": -0.0684, "Wolbachia per cell robust z, rep 2": 0.988, "Wolbachia per cell robust z, rep 3": 0.731, "Call": "inactive"}
{"gene": "Atg1 (GeneID 39454)", "amplicon": "DRSC09809", "Wolbachia per cell robust z, rep 1": -1.11, "Wolbachia per cell robust z, rep 2": -0.915, "Wolbachia per cell robust z, rep 3": 0.045, "Call": "inactive"}
{"gene": "Atg1 (GeneID 39454)", "amplicon": "DRSC09810", "Wolbachia per cell robust z, rep 1": -0.508, "Wolbachia per cell robust z, rep 2": 0.328, "Wolbachia per cell robust z, rep 3": -0.651, "Call": "inactive"}
{"gene": "CG15531 (GeneID 43592)", "amplicon": "DRSC15068", "Wolbachia per cell robust z, rep 1": -2.46, "Wolbachia per cell robust z, rep 2": 0.225, "Wolbachia per cell robust z, rep 3": -0.0359, "Call": "inactive"}
{"gene": "CG15531 (GeneID 43592)", "amplicon": "DRSC24882", "Wolbachia per cell robust z, rep 1": -0.676, "Wolbachia per cell robust z, rep 2": 0.546, "Wolbachia per cell robust z, rep 3": 0.247, "Call": "inactive"}
{"gene": "CG15531 (GeneID 43592)", "amplicon": "DRSC39079", "Wolbachia per cell robust z, rep 1": -0.545, "Wolbachia per cell robust z, rep 2": 0.22, "Wolbachia per cell robust z, rep 3": 0.0982, "Call": "inactive"}
{"gene": "Cyp312a1 (GeneID 40005)", "amplicon": "DRSC11128", "Wolbachia per cell robust z, rep 1": 0.503, "Wolbachia per cell robust z, rep 2": 0.411, "Wolbachia per cell robust z, rep 3": 0.811, "Call": "inactive"}
{"gene": "Cyp312a1 (GeneID 40005)", "amplicon": "DRSC24814", "Wolbachia per cell robust z, rep 1": 0.208, "Wolbachia per cell robust z, rep 2": -0.773, "Wolbachia per cell robust z, rep 3": 0.0517, "Call": "inactive"}
{"gene": "Amy-d (GeneID 36932)", "amplicon": "DRSC05919", "Wolbachia per cell robust z, rep 1": 0.472, "Wolbachia per cell robust z, rep 2": 0.531, "Wolbachia per cell robust z, rep 3": 0.115, "Call": "inactive"}
{"gene": "usp (GeneID 31165)", "amplicon": "DRSC18847", "Wolbachia per cell robust z, rep 1": 0.0164, "Wolbachia per cell robust z, rep 2": 0.846, "Wolbachia per cell robust z, rep 3": -1.93, "Call": "inactive"}
{"gene": "usp (GeneID 31165)", "amplicon": "DRSC24447", "Wolbachia per cell robust z, rep 1": -0.993, "Wolbachia per cell robust z, rep 2": 1.2, "Wolbachia per cell robust z, rep 3": 0.333, "Call": "inactive"}
{"gene": "CG40498 (GeneID 3354890)", "amplicon": "DRSC38568", "Wolbachia per cell robust z, rep 1": -0.967, "Wolbachia per cell robust z, rep 2": -0.804, "Wolbachia per cell robust z, rep 3": -1.45, "Call": "inactive"}
{"gene": "CG40498 (GeneID 3354890)", "amplicon": "DRSC38860", "Wolbachia per cell robust z, rep 1": -0.359, "Wolbachia per cell robust z, rep 2": -5.26, "Wolbachia per cell robust z, rep 3": 0.836, "Call": "inactive"}
{"gene": "Spn77Ba (GeneID 40234)", "amplicon": "DRSC10693", "Wolbachia per cell robust z, rep 1": -1.08, "Wolbachia per cell robust z, rep 2": 0.697, "Wolbachia per cell robust z, rep 3": -0.225, "Call": "inactive"}
{"gene": "Dronc (GeneID 39173)", "amplicon": "DRSC11231", "Wolbachia per cell robust z, rep 1": 0.807, "Wolbachia per cell robust z, rep 2": -7, "Wolbachia per cell robust z, rep 3": 1.14, "Call": "inactive"}
{"gene": "CG11771 (GeneID 42984)", "amplicon": "DRSC14379", "Wolbachia per cell robust z, rep 1": -8.49, "Wolbachia per cell robust z, rep 2": 0.203, "Wolbachia per cell robust z, rep 3": 2.64, "Call": "inactive"}
{"gene": "CG11771 (GeneID 42984)", "amplicon": "DRSC27732", "Wolbachia per cell robust z, rep 1": -0.709, "Wolbachia per cell robust z, rep 2": -0.526, "Wolbachia per cell robust z, rep 3": -0.166, "Call": "inactive"}
{"gene": "CG1582 (GeneID 32021)", "amplicon": "DRSC19732", "Wolbachia per cell robust z, rep 1": -0.881, "Wolbachia per cell robust z, rep 2": -7.18, "Wolbachia per cell robust z, rep 3": -1.5, "Call": "active"}
{"gene": "CG2811 (GeneID 37988)", "amplicon": "DRSC04318", "Wolbachia per cell robust z, rep 1": -0.251, "Wolbachia per cell robust z, rep 2": 0.561, "Wolbachia per cell robust z, rep 3": -0.268, "Call": "inactive"}
{"gene": "ss (GeneID 41988)", "amplicon": "DRSC17069", "Wolbachia per cell robust z, rep 1": -1.14, "Wolbachia per cell robust z, rep 2": 0.353, "Wolbachia per cell robust z, rep 3": -0.911, "Call": "inactive"}

No new results follow: 4 of the entries above.
{"gene": "usp (GeneID 31165)", "amplicon": "DRSC18847", "Wolbachia per cell robust z, rep 1": 0.0164, "Wolbachia per cell robust z, rep 2": 0.846, "Wolbachia per cell robust z, rep 3": -1.93, "Call": "inactive"}
{"gene": "usp (GeneID 31165)", "amplicon": "DRSC24447", "Wolbachia per cell robust z, rep 1": -0.993, "Wolbachia per cell robust z, rep 2": 1.2, "Wolbachia per cell robust z, rep 3": 0.333, "Call": "inactive"}
{"gene": "CG40498 (GeneID 3354890)", "amplicon": "DRSC38568", "Wolbachia per cell robust z, rep 1": -0.967, "Wolbachia per cell robust z, rep 2": -0.804, "Wolbachia per cell robust z, rep 3": -1.45, "Call": "inactive"}
{"gene": "CG40498 (GeneID 3354890)", "amplicon": "DRSC38860", "Wolbachia per cell robust z, rep 1": -0.359, "Wolbachia per cell robust z, rep 2": -5.26, "Wolbachia per cell robust z, rep 3": 0.836, "Call": "inactive"}
